Human monoclonal antibodies against the spike receptor-binding domain (heavy:light variable regions). IC50 against pseudoviruses bearing the spike of naturally observed variants; lower = stronger; >10 µg/ml means not reached at the top dose. No active / inactive call. The stated detection limit is 0.0005 µg/ml; values near or below 0.001 µg/ml lie at the floor of the assay.
B1: BD56-471 (protein)
chain 1: QMQLVQSGPEVKKPGASVKVSCKASGFTFTTSAVQWVRQAPGQRLEWIGWIVVGSSNTDCAQKFQERVTITGDMSTSTAYMDLSNLRSEDTAVYYCATPDCTNGVCTDAFDIWGQGTMVTVSS
chain 2: EIVLTQSPGTLSLSPGERATLSCRASQSVRSNYLAWYQQKPGQAPRLLTYGASSRATGIPDRFSGSGSGTDFILIISRLEPEDFAVYYCQQFGNSPWTFGQGTKVEIK
B2: BD56-475 (protein)
chain 1: EVQLVESGGGLVKPGGSLRLSCAASGFTFSTYSMNWVRQAPGKGLEWVSSISSSSTYIYYADSVKGRFTISRDNAKNSLYLQMNSLRAEDTAVYYCAKFTEVVPEAMNNWFDPWGQGTLVTVSS
chain 2: EIVLTQSPATLSLSPGERATLSCRASQSVRSYLAWYQQKPGQAPRLLIYDASNRATGIPARFSGSGSGTDFTLTISSLEPEDFAVYYCQQRITFGQGTRLEIK
B3: BD56-477 (protein)
chain 1: QVQLVQSGSELKKPGASVKVSCKASGYILSDYAMNWVRQAPGQGLEWMGWINTKTGNPKYAQGFTGRLVFSLDTSVSTAYLQISSLKNEDTAVYYCARDSGLLSFGDLFQAFDIWGQGTMVTVS
chain 2: EIVLTQSPATLSLSPGERATLSCRASQSVSAYFAWYQQKPGQAPRLLIYDASKRAIGIPARFSGSGSGTDFTLTINSLEPEDFAVYYCQQRTNWLWAFGQGTKVEIK
B4: BD56-479 (protein)
chain 1: QMQLVQSGPEVRKPGTSVKVSCKASGFTFTNSAVQWVRQARGQRLEWIGWIVVGSGDTNYAQNFQERVTITRDMSTSTAYMELSSLRSEDTAVYYCAANSCSGTTCYDAFDIWGQGTMVTVSS
chain 2: EIVLTQSPDTLSLSPGERATLSCRASQSVSSSYLAWYQQKPGQAPRLFIYGASSRATGIPDRFFGSGSGTDFTLTISRLEPEDFAFYYCQQYGTSPWTFGQGTKVEIK
B5: BD56-480 (protein)
chain 1: QVQLVQSGSELKKPGASVKVSCKASAYTFTNYAMNWVRQAPGQGLEWMGWINTKTGNPKYAQDFTGRIVFSLDTSVSTAYLQISSLKAEDTAVYYCARDSGLLSFGELFHVFDMWGQGTMVTVSS
chain 2: EIVLAQSPATLSLSPGERATLSCRASQSISTYFAWYQQKPGQPPRLLIYDTSNRAAGIPARFSGSGSGTDFTLTISSLEPEDFAVYYCLHRSNWLWTFGQGTKVEIK
B6: BD56-482 (protein)
chain 1: QVQLVESGGGVVQSGRSLRLSCAASGFTFRSHAMHWVRQAPGKGLECVAVIWYDGSNKHYADSVKGRFTISRDNSKNILYLQMNSLRAEDTAIYYCAREGISVGAGGDDAFDIWGQGTMVTVSS
chain 2: DIQMTQSPSSLSASVGDRVTITCRASQSISTFLNWYQQKPGKAPKLLIYAASSLHSGVPSRFSGSGSGTDFTLTISSLQPEDFATYYCQQSYDSPYTFGQGTNLEIK
B7: BD56-486 (protein)
chain 1: LQESGPGLVKPSGTLSLTCAVSGGSITTSSWWTWVRQPPGKGLQWIGEIYHTGSTNYNPSLKSRVTISLDKSKNQFSLRLTSVTAADTAVYYCARALLSDYRDLVGWGQGTLVTVSS
chain 2: DIQMTQSPSSLSASVGDRVTITCRASQSISSYLNWYQQKPGKAPKLLIYAASHLRSGVPSRFSGSESGTDFTLTISSLQPEDFATYFCHQMYSTPQTFGQGTTVEVK
B8: BD56-490 (protein)
chain 1: QITLKESGPTLVKPTQTLTLTCTFSGFSLSTSGVSVGWIRQPPGQALEWLALIYWDDDERYSPSLRTRLTITKDTSRNQVVLTMTNMDPVDTGTYYCARMTDTSTLFDYWGQGTLVTVSS
chain 2: QSALTQPASVSGSPGQSITISCTGASSDVGAYNYVSWYQQHPGNAPKVIIYDVTKRPSGVSNRFSGSKSGNTASLTISGLQAQDEADYYCSSYTSSSVVFGGGTKLTVL
B9: BD56-491 (protein)
chain 1: QVHLVESGGGLVKPGGSLRLSCAASGFTFSDYFMCWIRQAPGKGLECIAHISNSGNTKHYADSVKGRFTISRDNGKNSLYLQMSSLRAEDTAMYYCTRRPFGVAEWDGYWYFDLWGRGTLVTVSS
chain 2: QSVLTQPPSVSAAPGQKVTISCSGSSSNIGNNYVSWYQQLPGTAPTLLIYDNDQRPSGIPDRFSGSKSGTSATLAITGLQTGDEADYYCGTWDSSLSALFGGGTKLTVL
B10: BD56-497 (protein)
chain 1: EVQLVESGGGFIQPGGSLRLSCVVSGFSVSRIYMNWVRQVPGKGLEWVSIIYSGGSTFYADSVKGRFTISRDSSKNTLYLQMNSLRAEDTAVYYCARATYSNYFDYWGQGTLVTVSS
chain 2: DIQMTQSPSSLSASIGDRVTITCQASQDISNSLHWYQQKPGKAPKLLIHDASILETGVPSRFSGGGSGTDFTFTIISLQPEDIATYYCQQYDNLPSYTFGQGTKLEIK
B11: BD56-501 (protein)
chain 1: EVQLVGSGGGLVQPGGSLRLSCAASGFTFSSYEMNWVRQAPGRGLEWVSYISRSGTTTFYTDSVKGRFTISRDNARNSLYLQMNSLRAEDTAVYYCARDSTAWVSFYDYWGQGTLVTVSS
chain 2: EIVLTQSPDFQSVTPKEKVTITCRASESIGTSLHWYQQKPDQSPKLLIKIASQSFSGVPSRFSGSGSGTDFTLTISSLEAEDAATYYCHQTSSLPYTFGQGTKLEIK
B12: BD56-504 (protein)
chain 1: EVQLVESGGDLVQPGKSLTLSCTASGFTFEDYAMHWVRRVPGKGLEWVSGVSWNSGIIDYADSVKGRFTISRDNAKTSLYLHMRRLRPEDTALYYCAKGRGSAYDYGSGTYEGGYFDYWGQGTLVTVSS
chain 2: QSALTQPASVSGSPGQSITISCTGTSSVVGDYNYVSWYQQHPGKAPRLIIYDVRNRPSGVSNRFSGSKSDNTASLTISGLQADDEADYYCSSYSTSTTPWVFGGGTKLTVL

target: SARS-CoV-2 Omicron BA.1 spike pseudovirus; assay: pseudovirus neutralization IC50; higher = weaker neutralization
Method: (§1)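 Single-round VSV luciferase pseudovirus mixed with antibody dilutions for 1 h and put on Huh-7 cells for about a day; IC50 from the dose curve.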

Compared with B1, B2 is 6300-fold higher in “pseudovirus neutralization IC50” value: 0.001 µg/mL for the first, 6.35 µg/mL for the second.

Compared with B3, B4 is 130-fold lower in “pseudovirus neutralization IC50” value: 4.94 µg/mL for the first, 0.0368 µg/mL for the second.

Going from B5 to B6, the “pseudovirus neutralization IC50” value falls from 0.0955 µg/mL to 0.00639 µg/mL (15-fold).

First: B7
Second: B8
The “pseudovirus neutralization IC50” value of the first is 18-fold higher: 0.176 µg/mL for the first, 0.00975 µg/mL for the second.

Compared with B9, B10 is 420-fold lower in “pseudovirus neutralization IC50” value: 4.06 µg/mL for the first, 0.00957 µg/mL for the second.

Compared with B11, B12 is 22-fold lower in “pseudovirus neutralization IC50” value: 3.55 µg/mL for the first, 0.161 µg/mL for the second.

target: SARS-CoV-2 Omicron BA.2 spike pseudovirus; assay: as above
Method: as §1

Going from B1 to B2, the “pseudovirus neutralization IC50” value rises from 0.00182 µg/mL to 8.15 µg/mL (4500-fold).

Going from B3 to B4, the “pseudovirus neutralization IC50” value falls from 7.61 µg/mL to 0.0557 µg/mL (140-fold).

Going from B5 to B6, the “pseudovirus neutralization IC50” value falls from 0.0719 µg/mL to 0.00338 µg/mL (21-fold).

First: B7
Second: B8
The “pseudovirus neutralization IC50” value of the first is 160-fold higher: 0.204 µg/mL for the first, 0.0013 µg/mL for the second.

B9 and B10 are within 1.5-fold of each other in “pseudovirus neutralization IC50” value: 0.12 µg/mL for the first, 0.106 µg/mL for the second.

Compared with B11, B12 is 14-fold lower in “pseudovirus neutralization IC50” value: 2.78 µg/mL for the first, 0.197 µg/mL for the second.

target: SARS-CoV-2 Omicron BA.2.75 spike pseudovirus; assay: as above
Method: as §1

Compared with B1, B2 is higher in “pseudovirus neutralization IC50” value: 0.000852 µg/mL for the first, greater than 10 µg/mL for the second.

Compared with B3, B4 is 34-fold lower in “pseudovirus neutralization IC50” value: 1.11 µg/mL for the first, 0.0331 µg/mL for the second.

Compared with B5, B6 is 4.8-fold lower in “pseudovirus neutralization IC50” value: 0.0217 µg/mL for the first, 0.00451 µg/mL for the second.

Going from B7 to B8, the “pseudovirus neutralization IC50” value falls from 0.317 µg/mL to 0.00891 µg/mL (36-fold).

Going from B9 to B10, the “pseudovirus neutralization IC50” value rises from 4.3 µg/mL to greater than 10 µg/mL.

Compared with B11, B12 is 23-fold lower in “pseudovirus neutralization IC50” value: 4.59 µg/mL for the first, 0.199 µg/mL for the second.

target: SARS-CoV-2 Omicron BA.5 spike pseudovirus; assay: as above
Method: as §1

Going from B1 to B2, the “pseudovirus neutralization IC50” value rises from 0.112 µg/mL to greater than 10 µg/mL.

B3 and B4 cannot be ordered by “pseudovirus neutralization IC50” value: greater than 10 µg/mL for the first, greater than 10 µg/mL for the second.

First: B5
Second: B6
The “pseudovirus neutralization IC50” value of the first is higher: greater than 10 µg/mL for the first, 4.57 µg/mL for the second.

First: B7
Second: B8
The “pseudovirus neutralization IC50” value of the first is higher: greater than 10 µg/mL for the first, 0.00197 µg/mL for the second.

B9 and B10 cannot be ordered by “pseudovirus neutralization IC50” value: greater than 10 µg/mL for the first, greater than 10 µg/mL for the second.

Compared with B11, B12 is higher in “pseudovirus neutralization IC50” value: 2.85 µg/mL for the first, greater than 10 µg/mL for the second.

target: SARS-CoV-2 Omicron BQ.1.1 spike pseudovirus; assay: as above
Method: as §1

Going from B1 to B2, the “pseudovirus neutralization IC50” value rises from 0.137 µg/mL to greater than 10 µg/mL.

B3 and B4 cannot be ordered by “pseudovirus neutralization IC50” value: greater than 10 µg/mL for the first, greater than 10 µg/mL for the second.

B5 and B6 cannot be ordered by “pseudovirus neutralization IC50” value: greater than 10 µg/mL for the first, greater than 10 µg/mL for the second.

B7 and B8 cannot be ordered by “pseudovirus neutralization IC50” value: greater than 10 µg/mL for the first, greater than 10 µg/mL for the second.

B9 and B10 cannot be ordered by “pseudovirus neutralization IC50” value: greater than 10 µg/mL for the first, greater than 10 µg/mL for the second.

First: B11
Second: B12
The “pseudovirus neutralization IC50” value of the first is lower: 2.77 µg/mL for the first, greater than 10 µg/mL for the second.

target: SARS-CoV-2 Omicron XBB spike pseudovirus; assay: as above
Method: as §1

First: B1
Second: B2
The “pseudovirus neutralization IC50” value of the first is lower: 6.19 µg/mL for the first, greater than 10 µg/mL for the second.

B3 and B4 cannot be ordered by “pseudovirus neutralization IC50” value: greater than 10 µg/mL for the first, greater than 10 µg/mL for the second.

B5 and B6 cannot be ordered by “pseudovirus neutralization IC50” value: greater than 10 µg/mL for the first, greater than 10 µg/mL for the second.

B7 and B8 cannot be ordered by “pseudovirus neutralization IC50” value: greater than 10 µg/mL for the first, greater than 10 µg/mL for the second.

B9 and B10 cannot be ordered by “pseudovirus neutralization IC50” value: greater than 10 µg/mL for the first, greater than 10 µg/mL for the second.

Compared with B11, B12 is higher in “pseudovirus neutralization IC50” value: 3.21 µg/mL for the first, greater than 10 µg/mL for the second.

target: SARS-CoV-2 early D614G spike pseudovirus; assay: as above
Method: as §1

Going from B1 to B2, the “pseudovirus neutralization IC50” value rises from 0.00175 µg/mL to 1.36 µg/mL (780-fold).

Compared with B3, B4 is 220-fold lower in “pseudovirus neutralization IC50” value: 0.92 µg/mL for the first, 0.00417 µg/mL for the second.

First: B5
Second: B6
The “pseudovirus neutralization IC50” value of the first is 4.8-fold higher: 0.0185 µg/mL for the first, 0.00382 µg/mL for the second.

First: B7
Second: B8
The “pseudovirus neutralization IC50” value of the first is 14-fold higher: 0.0262 µg/mL for the first, 0.00185 µg/mL for the second.

Compared with B9, B10 is 35-fold lower in “pseudovirus neutralization IC50” value: 0.171 µg/mL for the first, 0.00483 µg/mL for the second.

Compared with B11, B12 is 26-fold lower in “pseudovirus neutralization IC50” value: 3.61 µg/mL for the first, 0.138 µg/mL for the second.
